Library screen at single concentrations

Each number is a percent effect as filed.
The record does not define 0% and 100%; most values in the screen are far below 50% and negative numbers occur (in some assays of this library far below -100).
This is part of a subset picked to be rich in strong results.

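Growth of Mycobacterium tuberculosis over 3 days (7H9 medium with glucose and tyloxapol); the read-out is not stated. Compounds at 500 µM. Direction is inferred from retests: higher values go with more growth inhibition. Of about 18,000 compounds tested this way, about 1,400 (7.9%) reached 50% or more in at least one test.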

structure	Percent Effect
CC(C)(NC(=O)c1cc2ccc(Br)cc2[nH]1)C(N)=O	41.43%
CCOCCC1(C(=O)NC2=NCCS2)CCCC1	24.67%
CNCC(=O)NC(C)c1nc(-c2ccc(Br)cc2)no1 (configuration not stated)	64.47%
Cc1ncsc1CCN	10.65%
COC(=O)C1CCN(S(=O)(=O)Cc2ccccc2)CC1	0.1494%
CC(c1ccc(F)c(F)c1)N1CCN(CCO)C(=O)C1 (configuration not stated)	45.67%
NC[C@@H]1Cc2ccccc2CO1	2.586%
CCc1nc(N)nc(NCC(O)CN(C)C)c1C (configuration not stated)	7.514%
CCC(=O)[C@@H]1CCCN1	-9.061%
CSCC1CCCN1C(=O)c1ccc(CN)cc1 (configuration not stated)	18.34%
CCc1nccn1CCN1CC2(CCOC2)CCC1=O (configuration not stated)	2.136%
CCOC(=O)CCN(C)CCNC	-1.095%
Cc1ccccc1-n1nnnc1SCC(=O)NC1CC1	59.26%
CCOCCC(=O)NCc1c(C)ncc2c1CCNC2	-26.52%
CNCCc1ccccc1OC	85.85%
CCc1ccc(CN(C)C(=O)c2cccn2C)nc1	69.97%
CCOc1cccc(CNCCO)c1	7.972%
Cn1nnnc1SCCNCc1ccc(Br)cc1	78.24%
CCN(Cc1noc(C)n1)Cc1cncn1CC	3.73%
O=C(NCCOc1ncccc1Cl)c1cscn1	-4.379%
Cc1ccc(CC(=O)N2CCOCC23CCOC3)cc1 (configuration not stated)	47.48%
COc1cc2c(cc1OC)CN(C(=O)C(C)C)CC2	37.07%
CC(=O)c1ccc(N)nc1	-0.162%
CC(C)n1nccc1NC(=O)CNC(=O)c1cccs1	7.134%
c1ccc(COCCc2noc(C3CNC3)n2)cc1	101.5%
CCOC(=O)CCN(CC1CC1)C(=O)c1ccccn1	14.45%
O=C(NCCC(O)C(F)(F)F)c1c(O)cc(F)cc1F (configuration not stated)	74.27%
NC(=O)COC(=O)COc1cccc2ccccc12	14.87%
CS(=O)(=O)c1cccc(C(=O)NCCCN)c1	-3.881%
O=C1CN(Cc2nc3ccsc3c(=O)[nH]2)CCN1	3.395%
NCC(=O)Nc1ccc(Cl)c(F)c1	73.15%
CC1(C#N)CCNCC1	6.384%
CN(C)C(=O)c1csc(N2CCCCC2)n1	53.91%
CNc1cccnc1N(C)C	18.22%
CC(=O)N(CC(=O)N1CCCCC1)c1ccc(C)cc1	16.04%
COCCNC(=O)CN(C)CC(=O)N1CCOCC1	-9.607%
Cc1nncc(CN)c1C	-4.973%
C=C(C)COc1ccccc1CNCCNC(C)=O	21.5%
Cc1cccc(C(=O)NCC(C)N2CCCC2)n1 (configuration not stated)	50.79%
CN(Cc1ccc(F)c(F)c1)C(=O)C1CCOCC1	36.14%
Cc1noc(C)c1CNC1CCN(C)CC1	-4.08%
CN(C)CCNc1oc(-c2ccccc2)nc1C#N	3.992%
CCn1cc(C(=O)Nc2ccc(Br)cn2)cn1	0.4415%
COc1cccc(N2CCC(N)C2)c1 (configuration not stated)	75.25%
NC(CO)c1cccc2ccccc12 (configuration not stated)	17.39%
Cc1ncsc1C(=O)Nc1ccc(N(C)C)cn1	-144.8%
COc1cccc(C2CNCCO2)c1 (configuration not stated)	28.81%
c1cncc(NCc2ccsc2)c1	30.7%
CCOc1ncc(C(=O)NCC(C)(O)C(C)C)cc1Cl (configuration not stated)	70.99%
Cn1cc(CNC(=O)c2c(Br)cnn2C)cn1	16.15%
CCOC(=O)C(C)(C)n1cc(N)cn1	32.95%
CSc1ccc(C(=O)NCCCc2ncc[nH]2)cc1	2.921%
O=C(CCc1ncc[nH]1)Nc1nc2ccccc2[nH]1	-12.63%
COc1ccc(C(=O)Nc2ccn(C)n2)cn1	15.64%
Cc1cc(C)n(CC(=O)NCc2ccc(F)cc2)n1	64.96%
CCCS(=O)(=O)N(C)Cc1ccc(OCC)cn1	75.34%
CNC(C)(C)CNC(=O)Nc1cc(OC)ccc1OC	12.67%
CCOc1ccc(C(=O)Nc2ccnc(C)c2)cn1	55.11%
Cc1cccc(C(=O)NCC(C)N2CCOCC2)n1 (configuration not stated)	10.69%
O=C(NCC1CNCCOC1)NC1CCCCC1 (configuration not stated)	1.881%
CC(=O)c1cnc2ccsc2c1	-11.36%
CNC1CCN(C(=O)C2(N)Cc3ccccc3C2)CC1	10.44%
CN(C)CCOc1cnccc1CN	1.508%
Cc1nnsc1C(=O)Nc1ccncc1	12.91%
NS(=O)(=O)N1CCN(Cc2cc3ccccc3s2)CC1	7.863%
COC(=O)c1ccc(CCN)c(OC)c1	35.49%
COCCNC(=O)c1cn(-c2cccc(Br)c2)nn1	12.98%
CCC(N)C(=O)N1CCN(c2cc(C)ccc2C)CC1 (configuration not stated)	20.85%
N[C@H]1CCCc2cc(F)ccc21	-338.4%
Cc1ncn(CC(=O)Nc2ccccc2F)c(=O)c1C	-8.503%
CNC(=O)C(O)CNS(=O)(=O)c1ccc(C)cc1F (configuration not stated)	7.335%
CN1CCCN(C(=O)NCCCn2cccn2)CC1	2.66%
O=C(c1cccc2cn[nH]c12)N1CCCC1CO (configuration not stated)	69.74%
O=C(CCn1cccn1)N1CCN(c2nccs2)CC1	30.95%
CNc1cc(CN(C)Cc2ccco2)ccn1	23.83%
CNS(=O)(=O)c1ccc(C(=O)Nc2ccccc2C)o1	19.56%
Cc1ccc(CNCCNCCO)s1	-0.8962%
COCCn1cnnc1SCC(=O)NCC(F)(F)F	10.39%
Cc1ccccc1C(C)NC(=O)c1ccc(=O)n(C)n1 (configuration not stated)	21.15%
O=C1C(N2CCNCC2)CCCN1C1CCOCC1 (configuration not stated)	-2.4%
CC(=O)Nc1ccccc1CN(C)Cc1ccncc1	-4.928%
CC(C)CC(O)C(=O)NCc1cc2ccccc2[nH]1 (configuration not stated)	54.9%

Measurements from “University of Dundee, Small-Polar-MMV Screening Library” (2021), ChEMBL document CHEMBL3988442.